Pooled drug test results. Numbers come from NIAID ChemDB, via PubChem.

All rows: cytotoxicity tests; endpoint: CC50

CCn is the concentration with n% toxicity to the cells. Neighbouring rows are from separate reports.

| compound | cells | value |
|---|---|---|
| Cc1cc(C)nc(NS(=O)(=O)c2ccc(N=C3C(=O)Nc4ccc(F)cc43)cc2)n1 | HFF | 239 µM |
| Nc1nc2c(ncn2CCOCP(=O)(O)O)c(=O)[nH]1 | HFF | >244 µM |
| Nc1nc(=O)n([C@@H]2C=C(CO)[C@@H](O)[C@H]2O)cc1F | MK2 | 100 µg/mL |
| CC(=O)N1C(=O)C(=Nc2ccc(S(=O)(=O)Nc3nc(C)cc(C)n3)cc2)c2cc(Cl)ccc21 | HFF | >300 µM |
| Nc1ncnc2c1ncn2[C@@H]1C[C@H](CO)[C@@H](O)[C@H]1O | L929 | 4.3 µM |
| Nc1ccn(C[C@@H](CO)OCP(=O)(O)O)c(=O)n1 | C1271 | 180 µM |
| CS/C(N)=N\N=C\c1ccc(Cl)cc1Cl | Chorioallantoic membrane | 632.5 µg/mL |
| CC(=O)N1C(=O)C(=Nc2ccc(S(=O)(=O)Nc3nc(C)cc(C)n3)cc2)c2ccccc21 | HFF | >300 µM |
| Nc1nc2c(ncn2[C@@H]2O[C@H](CO)[C@@H](O)[C@@H]2O)c(=O)[nH]1 | C1271 | 135 µM |
| CC(N)C12CC3CC(CC(C3)C1)C2 | CEF | >32 µM |
| Nc1nc(=O)n([C@@H]2O[C@H](CO)[C@@H](O)[C@@H]2O)cc1F | VERO | 0.6 µM |
| CCCCCCCCCCCCOc1ccc(/C=C/C(C)=N/N=C(/N)SC)cc1 | Chorioallantoic membrane | >1000 µg/mL |
| Nc1nc(=O)n([C@@H]2O[C@H](CO)[C@@H](O)[C@@H]2F)cc1I | C1271 | 118 µM |
| CS/C(N)=N\N=C(/C)c1cccc(Cl)c1 | Chorioallantoic membrane | 707.5 µg/mL |

The last 2 rows once more:

compound,cells,value
Nc1nc(=O)n([C@@H]2O[C@H](CO)[C@@H](O)[C@@H]2F)cc1I,C1271,118 µM
CS/C(N)=N\N=C(/C)c1cccc(Cl)c1,Chorioallantoic membrane,707.5 µg/mL